Zika virus NS2B-NS3: effect of single substitutions on growth in cell culture

Data from the supplement of Ni et al. 2025, doi:10.1038/s41467-025-63602-z.

Chain scanned (Zika virus MR766; NS2B from position 2 to 131, then the start of NS3):
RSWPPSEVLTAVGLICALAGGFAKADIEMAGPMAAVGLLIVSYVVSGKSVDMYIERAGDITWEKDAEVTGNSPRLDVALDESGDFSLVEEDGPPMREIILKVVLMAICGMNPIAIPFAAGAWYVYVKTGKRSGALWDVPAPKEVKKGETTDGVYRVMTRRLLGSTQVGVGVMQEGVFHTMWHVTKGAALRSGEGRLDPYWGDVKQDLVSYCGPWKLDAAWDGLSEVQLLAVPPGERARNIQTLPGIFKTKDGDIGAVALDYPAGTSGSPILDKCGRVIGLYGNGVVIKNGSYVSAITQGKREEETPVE

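Libraries of single mutants were passaged as virus pools on Huh-7.5 cells. Sequencing of three replicate libraries (two for positions 207-308) was averaged into one effect per change. The aim was to find sites where inhibitor-binding pockets cannot change.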

Scale: log2 effect, wild type = 0; the lower, the more harmful to the virus.
Each entry names the wild-type residue, its position and the residue put in its place.
Position 1 still belongs to NS2A. In the paper, -1 or higher counts as tolerated.

substitution	log2 growth effect
D253*	-6.90
D253A	-5.98
D253C	-2.48
D253E	0.08
D253F	-5.79
D253G	-6.85
D253H	-5.41
D253I	-3.46
D253K	-5.32
D253L	-6.73
D253M	-3.97
D253N	-2.18
D253P	-6.44
D253Q	-2.50
D253R	-7.05
D253S	-2.91
D253T	-1.82
D253V	-6.38
D253W	-5.66
D253Y	-5.63
I254*	-7.81
I254A	-6.50
I254C	-5.94
I254D	-5.98
I254E	-5.76
I254F	-6.03
I254G	-6.81
I254H	-6.12
I254K	-6.17
I254L	-1.73
I254M	-3.57
I254N	-6.23
I254P	-6.56
I254Q	-6.08
I254R	-7.11
I254S	-7.40
I254T	-4.74
I254V	-6.42
I254W	-5.76
I254Y	-6.42
G255*	-8.53
G255A	-7.37
G255C	-6.54
G255D	-6.58
G255E	-6.44
G255F	-7.00
G255H	-6.35
G255I	-6.64
G255K	-6.13
G255L	-7.99
G255M	-6.24
G255N	-6.63
G255P	-6.17
G255Q	-5.66
G255R	-7.59
G255S	-7.93
G255T	-7.05
G255V	-7.66
G255W	-6.61
G255Y	-6.66
A256*	-7.65
A256C	1.82
A256D	-4.98
A256E	-6.05
A256F	-5.88
A256G	-6.56
A256H	-5.96
A256I	-5.68
A256K	-5.75
A256L	-7.30
A256M	-5.75
A256N	-5.70
A256P	-7.04
A256Q	-6.44
A256R	-7.06
A256S	-7.59
A256T	-6.65
A256V	-6.47
A256W	-5.30
A256Y	-5.73
V257*	-5.99
V257A	-5.90
V257C	-4.82
V257D	-5.00
V257E	-4.76
V257F	-5.25
V257G	-5.98
V257H	-4.98
V257I	-4.60
V257K	-3.91
V257L	-6.39
V257M	-4.15
V257N	-4.91
V257P	-5.41
V257Q	-4.03
V257R	-5.84
V257S	-6.39
V257T	-5.56
V257W	-4.30
V257Y	-4.57

Extract of 12 entries:

V257E read -4.76.
I254D read -5.98.
I254K read -6.17.
I254Y read -6.42.
D253I read -3.46.
D253C read -2.48.
D253Y read -5.63.
I254P read -6.56.
D253M read -3.97.
V257Q read -4.03.
G255M read -6.24.
A256R read -7.06.

Positions 1-103, 104-206 and 207-308 were made and measured as separate libraries.
Six mutants with high scores were retested singly and none clearly outgrew wild type, so positive values are not proof of better growth.
An asterisk is a stop codon; stop codons read about -7, near the floor of the assay.